Measurements published in US5885833.

System: E2F1-DP1-pRb complex (pRb aa 300-928)
Experiment: EMSA
Conditions: similar affinity to B-myb site; purified recombinant protein; protein details: GST fusion, E. coli; label: 32P

“GATCGACTAGTTTCGCGCCCTTTCTACTAG (double strand) [E2a adenovirus promoter probe]”: binds.

For at least one entry, the source does not settle the construct or the ends of the probe.
